A mixed list of measured activities; the numbers were collected in NIAID ChemDB.

Common to all: growth or infection tests; organism: HIV-1

Inhibition is in % at the dose shown (toxicity tests: loss of growth or viability).

smiles,setting,read by,cells,changes,strain or isolate,tested at,measure,result
CC(C)[C@H](NC(=O)c1ccc2ccccc2n1)C(=O)N[C@@H](Cc1ccccc1)[C@H](O)CN1CC[C@@H](OCc2ccncc2)C[C@H]1C(=O)NC(C)(C)C,-,p24,C8166,-,IIIB,0.025 µM,inhibition,90%
c1cc(CN2CCCNCCNCCCNCC2)ccc1CN1CCCNCCNCCCNCC1,-,p24,PBMC,-,SW29 CLADE C R5,0.1 µM,inhibition,0%
S=C(NCCc1cccs1)Nc1ccc(Br)cn1,-,p24,PBMC,RT-M41L D67N K70R T215F K219Q,G780-1 Clinical isolate NRTI-resistant,-,EC50,0.0029 µM
CC(C)(C)NC(=O)[C@@H]1C[C@@H]2CCCC[C@@H]2CN1C[C@@H](O)[C@H](Cc1ccccc1)NC(=O)[C@H](CC(N)=O)NC(=O)c1ccc2ccccc2n1,-,p24,MT-4,PR-D30N M46I A71V,NL4-3,-,EC90,0.01 µM
Cc1ccnc2c1NC(=O)c1cccnc1N2C1CC1,-,XTT,CEM + CEM-SS,RT-Y188C,NL4-3,-,fold resistance,160
O=S(=O)(O)c1cc(N=C=S)ccc1CCc1ccc(N=C=S)cc1S(=O)(=O)O,-,p24,JM,-,GB8,100 µg/mL,inhibition,100%
Cc1cn([C@H]2C[C@H](N=[N+]=[N-])[C@@H](CO)O2)c(=O)[nH]c1=O,14 d,RT activity,U-937,-,LAV-Bru,0.2 µM,inhibition,0%
O=C(O)P(=O)(O)O,10 d,-,PBL,-,IIIB,128 µM,inhibition,99%
Cc1occc1C(=S)Nc1ccc(Cl)c(/C=N/OC(C)(C)C)c1,-,XTT,CEM + CEM-SS,RT-L100I T139I,Costatolide-resistant (RT L100I T139I),-,fold resistance,26
CC(=O)N1CCC(C(=O)N(CCCN2CCC(Cc3ccc(C(N)=O)cc3)CC2)c2ccc(C)c(Cl)c2)CC1,-,luciferase,U87 (CD4+ CXCR4+) + U87,-,X4 subtype B_1 recombinant,-,EC50,>19 µM
C/C(=C(/CCO)SS/C(CCO)=C(\C)N(C=O)Cc1cnc(C)nc1N)N(C=O)Cc1cnc(C)nc1N,-,p24,U-937/HIV-1(RF) + U-937,-,RF,500 µM,inhibition,80%
CO[P@](=O)(c1cc(C)cc(/C=C/C#N)c1)c1c(C(N)=O)[nH]c2ccc(Cl)c(F)c12,-,-,MT-4,-,NL4-3,-,EC50,0.002 µM
Cc1cn([C@H]2C[C@H](N=[N+]=[N-])[C@@H](COP(=O)(O)OC[C@H]3OC(O)[C@H](O)[C@@H](O)[C@@H]3O)O2)c(=O)[nH]c1=O,15 d,RT activity,CEM,-,LAV-Bru,25 µM,inhibition,98%
O=C1N(Cc2ccc(CO)cc2)[C@H](Cc2ccccc2)[C@H](O)[C@@H](O)[C@@H](Cc2ccccc2)N1Cc1ccc(CO)cc1,-,p24,PBMC,-,Clinical isolate E,0.05 µM,inhibition,90%
CC(C)Nc1cccnc1N1CCN(C(=O)c2cc3ccccc3[nH]2)CC1,-,MTT,PBMC,-,Seropositive clinical isolate A,1 µM,inhibition,100%
Cc1cn([C@H]2C[C@H](N=[N+]=[N-])[C@@H](CO)O2)c(=O)[nH]c1=O,-,XTT,CEM + CEM-SS,RT-Y181C,UC38-resistant (RT Y181C),-,fold resistance,0.2
CC(C)=CCN1Cc2cc(Cl)cc3[nH]c(=S)n(c23)C[C@@H]1C,-,-,MT-4,-,-,-,EC50,<0.8 µM
Cc1cn([C@H]2C[C@H](N=[N+]=[N-])[C@@H](CO)O2)c(=O)[nH]c1=O,-,p24,PBMC,-,9451 CLADE C CLADE C,-,EC50,0.001 µM

Repeating the final 2 entries:

smiles,setting,read by,cells,changes,strain or isolate,tested at,measure,result
CC(C)=CCN1Cc2cc(Cl)cc3[nH]c(=S)n(c23)C[C@@H]1C,-,-,MT-4,-,-,-,EC50,<0.8 µM
Cc1cn([C@H]2C[C@H](N=[N+]=[N-])[C@@H](CO)O2)c(=O)[nH]c1=O,-,p24,PBMC,-,9451 CLADE C CLADE C,-,EC50,0.001 µM

Fold resistance has wild type as its base. An empty or dashed field is not shown. Neighbouring rows are from separate reports. ECn: concentration that inhibits the pathogen or its effect by n%.